The values that follow come from patent US20040024068A1, “Antimicrobial compounds” (priority 1998, published 2004).

The test system of this test is Mycobacterium smegmatis mc^2155 and InhA mutants. The test can be described thus: MIC on agar plates by 2-fold serial dilutions, M. smegmatis strains. It counts as cell-based. Particulars: each of mutants MT1, MT9 and MT17.

In the case of `Oc1cc(Cl)ccc1Oc1ccc(Cl)cc1Cl` [triclosan, 2,4,4′-trichlor-2′-hydroxydiphenyl ether], the “times more resistant to triclosan than the parental strain” value is on record as 4-6.
